# Test system: rats with carrageenan-induced inflammatory hyperalgesia
# Conditions: 170 nmol/kg sc with naloxone methiodide 426 nmol/kg sc; mechanical hyperalgesia
smiles,measurement,value
"CN1CC[C@]23c4c5ccc(O)c4O[C@H]2[C@@H](NCC(=O)O)CC[C@@]3(OCCCc2ccccc2)[C@H]1C5.Cl.Cl [Compound 13, [[4,5α-Epoxy-3-hydroxy-17-methyl-14β-[(3-phenylpropyl)oxy]morphinan-6α-yl]amino]acetic Acid Dihydrochloride]",effect of coadministered naloxone methiodide on the antinociceptive effect,significantly reversed

# From PMC3041239 (Journal of Medicinal Chemistry, 2011)
